Experimental data from PMC7179434, “1,2,4-Triazolo[1,5-a]pyrimidines as a Novel Class of Inhibitors of the HIV-1 Reverse Transcriptase-Associated Ribonuclease H Activity” (Molecules, 2020).

Experiments:
[1] = Intrinsic fluorescence under RNase H assay conditions; details: excitation/emission 490/528 nm, RNase H reaction mixture
[2] = Mg2+ coordination analysis by UV-Vis spectra; assay type: physicochemical; details: 100 µM compound, absence and presence of 6 mM MgCl2

Row | SMILES | intrinsic fluorescence [1] | Mg2+ chelation ability (shift of absorbance maximum) [2]
1 | Cc1cc(-c2ccccc2)n2nc(NC(=O)c3ccc(O)c(O)c3)nc2n1 [Compound 12g, 3,4-Dihydroxy-N-(5-methyl-7-phenyl-[1,2,4]triazolo[1,5-a]pyrimidin-2-yl)benzamide] | no significant fluorescence | none of the TZP derivatives displayed chelation ability
2 | Cc1cc(-c2ccccc2)nc2nc(NC(=O)c3ccc(O)c(O)c3)nn12 [Compound 13g, 3,4-Dihydroxy-N-(7-methyl-5-phenyl-[1,2,4]triazolo[1,5-a]pyrimidin-2-yl)benzamide] | no significant fluorescence | none of the TZP derivatives displayed chelation ability
3 | Cc1cc(C)n2nc(NC(=O)c3ccc(O)c(O)c3)nc2n1 [Compound 14g, N-(5,7-Dimethyl-[1,2,4]triazolo[1,5-a]pyrimidin-2-yl)-3,4-dihydroxybenzamide] | no significant fluorescence | none of the TZP derivatives displayed chelation ability
4 | O=C(Nc1nc2nc(-c3ccccc3)cc(-c3ccccc3)n2n1)c1ccc(O)c(O)c1 [Compound 15g, N-(5,7-diphenyl-[1,2,4]triazolo[1,5-a]pyrimidin-2-yl)-3,4-dihydroxybenzamide] | no significant fluorescence | none of the TZP derivatives displayed chelation ability
5 | COc1ccc(-c2cc(C)nc3nc(N(C(=O)c4ccccc4)C(=O)c4ccccc4)nn23)cc1OC [Compound 16hh, N-benzoyl-N-(7-(3,4-dimethoxyphenyl)-5-methyl-[1,2,4]triazolo[1,5-a]pyrimidin-2-yl)benzamide] |  | none of the TZP derivatives displayed chelation ability
6 | Cc1cc(-c2ccc(O)c(O)c2)n2nc(NC(=O)c3ccccc3)nc2n1 [Compound 17h, N-(7-(3,4-dihydroxyphenyl)-5-methyl-[1,2,4]triazolo[1,5-a]pyrimidin-2-yl)benzamide] | no significant fluorescence | none of the TZP derivatives displayed chelation ability
7 | Cc1cc(-c2ccccc2)n2nc(C(=O)Nc3ccc(O)c(O)c3)nc2n1 [Compound 18g, N-(3,4-Dihydroxyphenyl)-5-methyl-7-phenyl-[1,2,4]triazolo[1,5-a]pyrimidine-2-carboxamide] | no significant fluorescence | none of the TZP derivatives displayed chelation ability

Some entries repeat one wording, which the source may state once for all of them.
